Results of unrelated studies side by side (data: NIAID ChemDB).

All rows: tests in culture; agent: Candida albicans

ECn: concentration that inhibits the pathogen or its effect by n%. Neighbouring rows are from separate reports. Blank or dashed fields: not listed here. MIC50, MIC90 and the like: level of inhibition, or share of isolates inhibited.

compound | read by | setting | measure | strain | value
COc1ccc(CCC2CCCC3=C2CCN(C)C3)cc1OC |  |  | MIC | C316 | >125 µg/mL
CN1C(=O)C(=O)N(C)C1=[Se] |  |  | MIC | CA10 | 6 µg/mL
C(=C\c1ccccc1)/CN(Cc1cccc2ccccc12)n1ccnc1 |  |  | MIC |  | >200 µM
Fc1ccc(-c2nn(-c3ccccc3)cc2C2=NNC(c3ccc(F)cc3)C2)cc1 |  |  | MIC99 | MTCC 227 | 20 µM
C=CC1C[C@H](N)[C@H](C(=O)O)C1 |  |  | EC50 |  | 128 µg/mL
C=CCc1ccc(O)c(-c2ccc(O)c(CC=C)c2)c1 | broth dilution |  | MIC | YL 325 | 128 µg/mL
CN(C/C=C/C#CC(C)(C)C)Cc1cccc2ccccc12 |  |  | MIC | DAY364 (genotype CNB1/CNB1) | 0.39 µg/mL
C[C@@H]1[C@H](O)[C@@H](C)/C=C/C=C/C=C/C=C/C=C/C=C/C=C/[C@H](O[C@@H]2O[C@H](C)[C@@H](O)[C@H](N)[C@@H]2O)C[C@@H]2O[C@](O)(C[C@@H](O)C[C@@H](O)[C@H](O)CC[C@@H](O)C[C@@H](O)CC(=O)O[C@H]1C)C[C@H](O)[C@H]2C(=O)O | resazurin |  | MIC | SC5314 | 0.63 µg/mL
N[C@H]1CC=CC[C@H]1C(=O)O |  |  | EC50 |  | 128 µg/mL
CC(C)(C)c1ccc(CN(Cc2cccc3ccccc23)N2C=NNC2)cc1 |  |  | MIC |  | >200 µM
Cc1ccc(Sc2nc3ccccc3cc2C2C(C#N)=C(N)Oc3c2c(=O)oc2ccc(C)cc32)cc1 | broth dilution |  | MIC | MTCC 227 | 1000 µg/mL
CCC(C)n1ncn(-c2ccc(N3CCN(c4ccc(OC[C@H]5CO[C@](Cn6cncn6)(c6ccc(Cl)cc6Cl)O5)cc4)CC3)cc2)c1=O | agar diffusion |  | MIC |  | 12 µg/mL
C=C1CO[C@@]2(O[C@H]3C[C@H]4[C@@H]5CC=C6C[C@@H](O)[C@H](O)[C@@H](O[C@@H]7O[C@H](CO)[C@H](O)[C@H](O)[C@H]7O)[C@]6(C)[C@H]5CC[C@]4(C)[C@H]3[C@@H]2C)[C@@H](O)C1 |  |  | MFC |  | ≥20 µg/mL
CC(C)(C)[C@](O)(COc1ccc(Cl)cc1)Cn1cncn1 |  |  | MLC50 |  | >0.08 µg/mL
N[C@H]1CCS[C@H]1C(=O)O |  |  | EC50 |  | >256 µg/mL
COCCN1CN(CCc2ccccc2)c2ccccc21 |  |  | MIC |  | 400 µg/mL
COc1cccc(CSC#N)c1 | broth dilution |  | MFC |  | 600 µg/mL
CC[C@@]1(O)C(=O)OCc2c1cc1n(c2=O)Cc2c-1nc1cc3c(cc1c2C)OCO3 |  |  | MIC | A39 | >100 µg/mL
N#CSCc1ccccc1 | broth dilution |  | MFC |  | 1250 µg/mL
CCn1c(=S)n(CCc2ccccc2)c2ccccc21 |  |  | MIC |  | >800 µg/mL
CC1(C)NC(=S)NC1=O |  |  | MIC | CA10 | >100 µg/mL
c1ccc(CCN2CN(CCc3ccccc3)c3ccccc32)cc1 |  |  | MIC |  | 400 µg/mL
C[C@H](c1ncncc1F)[C@](O)(Cn1cncn1)c1ccc(F)cc1F | broth dilution | clinical isolate | MIC80 |  | 0.18 µM
CC[C@@]1(O)C(=O)OCc2c1cc1n(c2=O)Cc2cc3c(N)c4c(cc3nc2-1)OCO4 |  |  | MIC | A39 | >100 µg/mL
C[C@@H]1CC[C@@]2(OC1)O[C@H]1C[C@H]3[C@@H]4CC=C5C[C@@H](O[C@@H]6O[C@H](CO)[C@H](O[C@@H]7O[C@@H](C)[C@H](O)[C@@H](O)[C@H]7O)[C@@H](O)[C@H]6O[C@@H]6O[C@@H](C)[C@H](O)[C@@H](O)[C@H]6O)CC[C@]5(C)[C@H]4CC[C@]3(C)[C@H]1[C@@H]2C |  |  | MIC |  | 2.5 µg/mL
CN1CCC2=C(CCCC2CCc2ccc(Cl)c(Cl)c2)C1 |  |  | MIC | 1208E | 31 µg/mL
C[C@@H]1CC[C@@]2(OC1)O[C@H]1C[C@H]3[C@@H]4CC=C5C[C@@H](O)[C@H](O)[C@@H](O[C@@H]6OC[C@@H](O)[C@H](O)[C@H]6O)[C@]5(C)[C@H]4CC[C@]3(C)[C@@]1(O)[C@@H]2C |  |  | MFC |  | ≥20 µg/mL
NNC(=O)c1ccccc1 | broth dilution |  | MIC | MTCC 227 | 1000 µg/mL
N[C@H]1CCC[C@H]1S(=O)(=O)O |  |  | EC50 |  | >256 µg/mL
COc1cnc2c3c(nccc13)C1SC=CC1C2=O |  |  | MIC80 |  | >64 µg/mL
C=C1C[C@@H](C(=O)O)[C@H]1N |  |  | EC50 |  | >256 µg/mL
CCn1c(=[Te])n(CCc2ccccc2)c2ccccc21 |  |  | MIC |  | 400 µg/mL
C=C1C[C@@H](C(=O)O)[C@@H](N)C1C |  |  | EC50 |  | 64 µg/mL
COc1ccc2nc(Sc3ccc(C)cc3)c(C3C(C#N)=C(N)Oc4c3c(=O)oc3ccccc43)cc2c1 | broth dilution |  | MIC | MTCC 227 | 1000 µg/mL
CN1CCSC1=[Se] |  |  | MIC | CA10 | 12 µg/mL
CCC(C)CC(C)CCCCCCCCC(=O)NC1CC(O)CNC(=O)C2C(O)CCN2C(=O)C(C(O)CC(N)=O)NC(=O)C(C(O)Cc2ccc(OP(=O)([O-])[O-])cc2)NC(=O)C2CC(O)CN2C(=O)C(C(C)O)NC1=O.[Na+].[Na+] |  |  | MFC | MY1055 | 1 µg/mL
Cc1ccc2oc(=O)c3c(c2c1)OC(N)=C(C#N)C3c1cc2ccccc2nc1Sc1ccc(Cl)cc1 | broth dilution |  | MIC | MTCC 227 | 1000 µg/mL
Clc1cccc(CCC2CCCc3cnccc32)c1 |  |  | MIC | C316 | 31 µg/mL
CCC(C)CC(C)CCCCCCCCC(=O)N[C@H]1C[C@@H](O)[C@H](NCCN)NC(=O)[C@@H]2[C@@H](O)CCN2C(=O)[C@H]([C@H](O)CCN)NC(=O)[C@H]([C@H](O)[C@@H](O)c2ccc(O)cc2)NC(=O)[C@@H]2C[C@@H](O)CN2C(=O)[C@H]([C@@H](C)O)NC1=O | resazurin |  | MIC | DPL1000 | 2 µg/mL
COc1ccccc1CN=C=S | broth dilution |  | MFC |  | 1250 µg/mL
CC(C)(C)c1ccc(CN(Cc2cccc3ccccc23)n2cnnc2)cc1 |  |  | MIC |  | >200 µM
COc1ccc2nc(Sc3ccc(C)cc3)c(C3C(C#N)=C(N)Oc4cc(C)oc(=O)c43)cc2c1 | broth dilution |  | MIC | MTCC 227 | 500 µg/mL
N#CCc1ccccc1 | broth dilution |  | MFC |  | 5000 µg/mL
CC1(C)N=C([Se])NC1=O |  |  | MIC | CA10 | 0.195 µg/mL
C=C=C1C[C@H](N)[C@H](C(=O)O)C1 |  |  | EC50 |  | 128 µg/mL
C=C(CCC1(OC)O[C@H]2C[C@H]3[C@@H]4CC=C5C[C@@H](O)[C@H](O)[C@@H](O[C@@H]6OC[C@@H](O)[C@H](O)[C@H]6O)[C@]5(C)[C@H]4CC[C@]3(C)[C@H]2[C@@H]1C)CO[C@@H]1O[C@H](CO)[C@@H](O)[C@H](O)[C@H]1O |  |  | MFC |  | ≥20 µg/mL

Repeating the final 6 entries:

compound,read by,setting,measure,strain,value
CC(C)(C)c1ccc(CN(Cc2cccc3ccccc23)n2cnnc2)cc1,,,MIC,,>200 µM
COc1ccc2nc(Sc3ccc(C)cc3)c(C3C(C#N)=C(N)Oc4cc(C)oc(=O)c43)cc2c1,broth dilution,,MIC,MTCC 227,500 µg/mL
N#CCc1ccccc1,broth dilution,,MFC,,5000 µg/mL
CC1(C)N=C([Se])NC1=O,,,MIC,CA10,0.195 µg/mL
C=C=C1C[C@H](N)[C@H](C(=O)O)C1,,,EC50,,128 µg/mL
C=C(CCC1(OC)O[C@H]2C[C@H]3[C@@H]4CC=C5C[C@@H](O)[C@H](O)[C@@H](O[C@@H]6OC[C@@H](O)[C@H](O)[C@H]6O)[C@]5(C)[C@H]4CC[C@]3(C)[C@H]2[C@@H]1C)CO[C@@H]1O[C@H](CO)[C@@H](O)[C@H](O)[C@H]1O,,,MFC,,≥20 µg/mL